Source: publication PMC9132681 (Biochimie, 2022)

Target: T1, cytosolic fragment of human TOM70 (residues 111-608), His-tagged (human, UniProt O94826 111-608)
T1 sequence: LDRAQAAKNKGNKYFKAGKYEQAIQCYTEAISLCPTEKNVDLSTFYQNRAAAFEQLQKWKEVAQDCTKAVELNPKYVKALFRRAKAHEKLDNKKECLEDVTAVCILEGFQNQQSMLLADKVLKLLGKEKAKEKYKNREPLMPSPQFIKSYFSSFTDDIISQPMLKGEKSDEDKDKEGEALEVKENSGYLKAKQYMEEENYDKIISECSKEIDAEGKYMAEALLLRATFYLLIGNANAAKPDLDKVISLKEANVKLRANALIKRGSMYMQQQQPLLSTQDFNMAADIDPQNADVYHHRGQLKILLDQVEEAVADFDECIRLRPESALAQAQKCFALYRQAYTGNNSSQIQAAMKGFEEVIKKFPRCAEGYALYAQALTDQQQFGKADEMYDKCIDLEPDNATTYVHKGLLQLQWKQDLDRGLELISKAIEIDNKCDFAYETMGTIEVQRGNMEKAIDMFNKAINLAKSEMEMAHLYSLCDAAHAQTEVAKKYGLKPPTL
Experiment: SEC-MALS

B1: SARS-CoV-2 ORF9b (open reading frame 9b), His-tagged recombinant protein (natural protein)
chain: not shown
stoichiometry N: 1 ORF9b per TOM70
